Test results reported in patent US20240199535A1, “DEUTERATED DHODH INHIBITORS” (priority 2021, published 2024).

Tested on: SARS-CoV-2
Experiment: Antiviral activity on SARS-CoV-2, viral replication (YFP) assay
Conditions: read-out: EC50 range

For `[2H]C([2H])([2H])C([2H])([2H])C([2H])([2H])C([2H])([2H])Oc1cccc(-c2cc(F)c(NC(=O)C3=C(C(=O)O)CCC3)c(F)c2)c1`, the pEC50 was > 5.00.

pEC50: −log10 of the molar value.
